# HIV-1 NL4-3 point mutations in Gag: replication capacity

Values reported by Al-Mawsawi et al. 2014 (doi:10.1186/s12977-014-0124-6).

Protein: Gag of HIV-1 NL4-3, numbered from its first residue. Gag is numbered as the whole polyprotein.
Effects on overlapping genes or RNA elements are not listed.

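Random point mutant libraries of HIV-1 NL4-3, one for each of seven fragments, were passaged in CEM T lymphocytes. The RC index is the frequency of a change after passage round 2 divided by its frequency in the plasmid library.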

RC index: lower means poorer replication; rough cut-offs are 0.1 (lethal) and 0.2 (tolerated).
Each entry names the wild-type residue, its position and the residue put in its place.
Since each clone held several changes (about five per kb), neutral changes can read low.

N124I (base A1160T, region MA) gave 0.0198.
A154T (base G1249A, region CA) gave 0.235.
N109I (base A1115T, region MA) gave 0.0330.
Q422H (base A2055C, region NC p7) gave 0.141.
N327S (base A1769G, region CA) gave 0.0419.
Q136L (base A1196T, region CA) gave 0.0390.
V35E (base T893A, region MA) gave 0.0724.
K391R (base A1961G, region NC p7) gave 0.0366.
S67T (base T988A, region MA) gave 0.0394.
Q227H (base G1470T, region CA) gave 0.0744.
K359I (base A1865T, region CA) gave 0.0231.
K95T (base A1073C, region MA) gave 0.165.
A37G (base C899G, region MA) gave 0.0827.
C426Y (base G2066A, region NC p7) gave 0.0825.
E208V (base A1412T, region CA) gave 0.0921.
R294I (base G1670T, region CA) gave 0.114.
N185Y (base A1342T, region CA) gave 0.0662.
K388R (base A1952G, region NC p7) gave 0.127.
E12Q (base G823C, region MA) gave 0.374.
D183E (base T1338A, region CA) gave 0.0815.
E291G (base A1661G, region CA) gave 0.0495.
N206I (base A1406T, region CA) gave 0.0267.
S241T (base G1511C, region CA) gave 0.0701.
I104L (base A1099T, region MA) gave 0.0303.
I19N (base T845A, region MA) gave 0.0463.
P181T (base C1330A, region CA) gave 0.184.
K418Q (base A2041C, region NC p7) gave 0.0848.
N372D (base A1903G, region p2) gave 0.0232.
T151P (base A1240C, region CA) gave 0.0686.
T190I (base C1358T, region CA) gave 0.0736.
S440F (base C2108T, region p1) gave 0.0635.
Q65H (base A984T, region MA) gave 0.196.
C57G (base T958G, region MA) gave 0.0633.
A146P (base G1225C, region CA) gave 0.139.
P292S (base C1663T, region CA) gave 0.184.
P254S (base C1549T, region CA) gave 0.121.

The opening 4 entries, copied out:

mutation	base	region	RC
N124I	A1160T	MA	0.0198
A154T	G1249A	CA	0.235
N109I	A1115T	MA	0.0330
Q422H	A2055C	NC p7	0.141

The authors read an index above 1 as above wild type (1.9% of all changes in the genome).
Nucleotide positions follow pNL4-3.